A mixed list of measured activities; the numbers were collected in NIAID ChemDB.

Common to all: enzyme or target tests; agent: HIV-1; protein: Protease; endpoint: IC50

ICn is the concentration giving n% inhibition. Blank or dashed fields: not listed here. a–b is a range or a potency band. Neighbouring rows are from separate reports.

| structure | mutations | method | conditions | result |
|---|---|---|---|---|
| CC(C)(C)OC(=O)N[C@@H](Cc1ccccc1)[C@H](O)CNC[C@@H](O)[C@H](Cc1ccc(OCCO)cc1)NC(=O)OC(C)(C)C | - | HPLC | pH 5.5 | <10 µM |
| CC(C)C[C@H](NC(=O)[C@H](Cc1ccccc1)C[C@H](O)[C@H](Cc1ccccc1)NC(=O)OC(C)(C)C)C(=O)N[C@@H](Cc1ccccc1)C(N)=O | - | HPLC | - | 0.0006 µM |
| CCCCCCCCCCCCCCCC(=O)N[C@@H](Cc1ccc2ccccc2c1)C(=O)N[C@@H](CCC(=O)O)C(=O)N[C@@H](CC(C)C)C(=O)O | - | fluorescence | - | 0.2 µM |
| CC1(C)O[C@H]2CC(=O)OC[C@]23[C@H]2CC[C@@]4(C)[C@H](c5ccoc5)OC(=O)[C@H]5O[C@]54[C@]2(C)C(=O)C[C@@H]13 | - | - | - | 20 µM |
| CCCCCCCCCCCCCCCC(=O)N[C@@H](Cc1ccc(O)cc1)C(=O)N[C@@H](CCC(=O)O)C(=O)N[C@@H](Cc1ccc(-c2ccccc2)cc1)C(=O)O | - | fluorescence | - | 0.025 µM |
| O=c1oc(-c2ccccc2)cc(O)c1C(CC1CC1)SC1CCCCC1 | - | HPLC | pH 6.2 | 0.36 µM |
| CC[C@H](C)[C@H](NC(=O)[C@H](Cc1ccccc1)C[C@H](O)[C@H](Cc1ccccc1)NC(=O)OC(C)(C)C)C(=O)NCc1nc2ccccc2[nH]1 | - | HPLC | - | 0.0001–0.01 µM |
| CC(C)c1ccccc1SC1=C(O)CC(CCCC(=O)N2CCN(C(=O)OC(C)(C)C)CC2)(c2ccccc2)OC1=O | - | HPLC | pH 4.7 | 0.124 µM |
| CC(C)[C@H](NC(=O)[C@H](Cc1ccccc1)C[C@H](O)[C@H](Cc1ccccc1)NC(=O)OC(C)(C)C)C(=O)NCC(O)CO | - | HPLC | - | 0.0001–0.01 µM |
| Cc1ccc(Cl)cc1N1CCN(Cc2cn([C@@H](Cc3ccccc3)[C@H](Cc3ccccc3)NC(=O)OCC(C)C)nn2)CC1 | - | fluorescence | - | <5 µM |
| COC(=O)[C@]12CCC(C)(C)C[C@H]1C1=CC[C@@H]3[C@@]4(C)CC[C@H](NC(=O)CCCCC(=O)OC[C@H]5O[C@@H](n6cc(C)c(=O)[nH]c6=O)C[C@@H]5N=[N+]=[N-])C(C)(C)[C@@H]4CC[C@@]3(C)[C@]1(C)CC2 | - | HPLC | - | 20 µM |
| CC(C)(C)OC(=O)N[C@@H](Cc1ccc2ccccc2c1)[C@@H](O)C[C@@H](Cc1ccccc1)C(=O)N[C@H]1c2ccccc2C[C@H]1O | - | HPLC | - | 0.0001–0.01 µM |
| COC(=O)[C@]12CCC(C)(C)C[C@H]1C1=CC[C@@H]3[C@@]4(C)CC[C@H](NC(=O)CCCCC(=O)Oc5c(OC)ccc6c5[C@@]57CCC(C)[C@@H](C6)C5=C(OC)C(OC(C)=O)C(OC(C)=O)C7)C(C)(C)[C@@H]4CC[C@@]3(C)[C@]1(C)CC2 | - | HPLC | - | >100 µM |
| CC[C@H](C)[C@H](NC(=O)[C@H](Cc1ccccc1)C[C@H](O)[C@H](Cc1ccccc1)NC(=O)OCc1ccncc1)C(=O)NCc1nc2ccccc2[nH]1 | - | HPLC | - | 0.0001–0.01 µM |
| COC(=O)[C@]12CCC(C)(C)CC1C1=CCC3[C@@]4(C)CC[C@H](NC(=O)CCCCC(=O)O)C(C)(C)C4CC[C@@]3(C)[C@]1(C)CC2 | - | HPLC | - | 3 µM |
| CC[C@H](C)[C@@H]1NC(=O)[C@@H](NC[C@@H](O)[C@H](Cc2ccccc2)NC(=O)[C@@H](NC(=O)[C@H](CC(C)C)NC(C)=O)C(C)C)Cc2ccc(cc2)OCCCNC1=O | - | fluorescence | - | 0.002 µM |
| CCCCCCCCCCCCCCCC(=O)N[C@@H](CO)C(=O)N[C@@H](Cc1ccc2ccccc2c1)C(=O)N[C@@H](CCC(=O)O)C(=O)N[C@@H](Cc1ccc2ccccc2c1)C(=O)O | - | fluorescence | - | 0.23 µM |
| O=C(N[C@@H](Cc1ccccc1)[C@H](Cc1ccccc1)n1cc(CN2CCN(c3ncccn3)CC2)nn1)OC1CCCC1 | - | fluorescence | - | >5 µM |
| COC(=O)[C@]12CCC(C)(C)C[C@H]1C1=CC[C@@H]3[C@@]4(C)CC[C@H](OC(=O)CCCCC(=O)O)C(C)(C)[C@@H]4CC[C@@]3(C)[C@]1(C)CC2 | - | HPLC | - | 7.5 µM |
| CC[C@H](C)[C@H](NC(=O)[C@H](Cc1ccccc1)N[C@@H](O)CC(=O)[C@H](Cc1ccccc1)NC(=O)[C@@H](NC(=O)[C@H](CC(C)C)NC(C)=O)C(C)C)C(=O)N[C@H](C(N)=O)C(C)C | - | fluorescence | - | 0.005 µM |
| CC(C)(C)NC(=O)N[C@@H](Cc1ccccc1)[C@H](O)CNC[C@@H](O)[C@H](Cc1ccccc1)NC(=O)NC(C)(C)C | - | HPLC | pH 5.5 | <10 µM |
| CC(C)(C)OC(=O)N[C@@H](Cc1ccccc1)[C@@H](O)C[C@@H](Cc1ccc(O)cc1)C(=O)N[C@H]1c2ccccc2C[C@H]1O | - | HPLC | - | 0.0001–0.01 µM |
| COC(=O)[C@]12CCC(C)(C)CC1C1=CCC3[C@@]4(C)CC[C@H](N)C(C)(C)C4CC[C@@]3(C)[C@]1(C)CC2 | - | HPLC | - | >20 µM |
| CC(C)(C)OC(=O)N[C@@H](Cc1ccccc1)[C@@H](O)C[C@@H](Cc1ccc(C(C)(C)C)cc1)C(=O)N[C@H]1c2ccccc2C[C@H]1O | - | HPLC | - | 0.0001–0.01 µM |
| CC(C)CC(SCc1ccccc1)c1c(O)cc(-c2ccccc2)oc1=O | - | HPLC | pH 6.2 | 0.3 µM |
| CC(C)CN(C[C@@H](O)[C@H](Cc1ccccc1)NC(=O)[C@H](CC(N)=O)NC(=O)c1ccc2ccccc2n1)C(=O)NC(C)(C)C | PR-A71T V82A | HPLC | - | 0.0034 µM |
| Cc1ccc(Cl)cc1N1CCN(Cc2cn([C@@H](Cc3ccccc3)[C@H](Cc3ccccc3)NC(=O)OC3CCC3)nn2)CC1 | - | fluorescence | - | <5 µM |
| CC[C@H](C)C(NC(=O)[C@@H]1CCCN1C[C@@H](O)[C@@H]1Cc2ccc(cc2)OCCCC(=O)N[C@@H](CC(N)=O)C(=O)N1)C(N)=O | - | fluorescence | - | 8.5 µM |
| CC(C)(C)OC(=O)N[C@@H](Cc1ccccc1)[C@H](O)CNC[C@@H](O)[C@H](Cc1ccc(OCC(=O)N2CCOCC2)cc1)NC(=O)OC(C)(C)C | PR-A71T V82A | HPLC | - | 1.14 µM |
| CCC(=O)N[C@H](C(=O)N[C@@H](Cc1ccccc1)[C@H](O)CNC[C@@H](O)[C@H](Cc1ccccc1)NC(=O)OC(C)(C)C)C(C)C | - | HPLC | pH 5.5 | <10 µM |
| Cc1ccc(Cl)cc1N1CCN(Cc2cn([C@@H](Cc3ccccc3)[C@H](Cc3ccccc3)NC(=O)OCC3CCCCC3)nn2)CC1 | - | fluorescence | - | <5 µM |
| CC(C)c1ccccc1SC1=C(O)CC(CCC(=O)N2CCSCC2)(c2ccccc2)OC1=O | - | HPLC | pH 4.7 | 1.103 µM |
| COC(=O)[C@]12CCC(C)(C)C[C@H]1C1=CC[C@@H]3[C@@]4(C)CC[C@H](OC(=O)CCCCC(=O)OC[C@H]5O[C@@H](n6cc(C)c(=O)[nH]c6=O)C[C@@H]5N=[N+]=[N-])C(C)(C)[C@@H]4CC[C@@]3(C)[C@]1(C)CC2 | - | HPLC | - | 4 µM |
| CC(C)c1ccccc1SC1=C(O)CC(CCC(=O)N2CCOCC2)(c2ccccc2)OC1=O | - | HPLC | pH 4.7 | 2.44 µM |
| CCCCCCCCCCCCCCCC(=O)N[C@@H](Cc1ccc(O)cc1)C(=O)N[C@@H](CCC(=O)O)C(=O)N[C@@H](Cc1ccc(Oc2ccc(O)cc2)cc1)C(=O)O | - | fluorescence | - | ~0.05 µM |
| CC(C)c1ccccc1SC1=C(O)CC(CCC(=O)N2CCN(C(=O)OC(C)(C)C)CC2)(c2ccccc2)OC1=O | - | HPLC | pH 4.7 | 1.27 µM |
| CCCCCCCCCCCCCCCC(=O)N[C@@H](Cc1ccc(O)cc1)C(=O)N[C@@H](CCC(=O)O)C(=O)N[C@@H](Cc1ccc2ccccc2c1)C(=O)O | - | fluorescence | - | 0.5 µM |
| CC(C)c1ccccc1SC1=C(O)CC(CCCCC(N)=O)(c2ccccc2)OC1=O | - | HPLC | pH 4.7 | 0.092 µM |
| CC(C)CCC[C@@H](C)[C@H]1CC[C@H]2[C@@H]3CC=C4C[C@H](SC[C@@H]5CC[N+]6=C(N[C@H](CSCC(=O)NCC(=O)N[C@@H](C)C(=O)N[C@H](C(=O)N[C@@H](CC(C)C)C(=O)N[C@@H](CC(N)=O)C(=O)N[C@@H](Cc7ccccc7)C(=O)OCc7ccccc7)[C@@H](C)OCc7ccccc7)CC6)N5)CC[C@]4(C)[C@H]3CC[C@]12C | - | fluorescence | - | 3 µM |
| CC(C)(C)NC(=O)N[C@@H](Cc1ccccc1)[C@H](O)CNC[C@@H](O)[C@H](Cc1ccccc1)NC(=O)OC(C)(C)C | - | HPLC | pH 5.5 | <10 µM |
| CC(C)c1ccccc1SC1=C(O)CC(CCCCC(=O)N2CCSCC2)(c2ccccc2)OC1=O | - | HPLC | pH 4.7 | 0.583 µM |

3 of the rows above, restated:

structure | mutations | method | conditions | result
CC(C)(C)OC(=O)N[C@@H](Cc1ccccc1)[C@H](O)CNC[C@@H](O)[C@H](Cc1ccc(OCC(=O)N2CCOCC2)cc1)NC(=O)OC(C)(C)C | PR-A71T V82A | HPLC | - | 1.14 µM
O=C(N[C@@H](Cc1ccccc1)[C@H](Cc1ccccc1)n1cc(CN2CCN(c3ncccn3)CC2)nn1)OC1CCCC1 | - | fluorescence | - | >5 µM
CC(C)c1ccccc1SC1=C(O)CC(CCC(=O)N2CCSCC2)(c2ccccc2)OC1=O | - | HPLC | pH 4.7 | 1.103 µM